A mixed list of measured activities; the numbers were collected in NIAID ChemDB.

Shared fields: whole-cell or culture tests; agent: Candida parapsilosis; read-out: MIC

Conditions beyond the fields shown may differ between rows.

structure	strain	read by	value
C[C@@H]1CC(=O)N(CCc2ccccc2)C1=O	CCC 124-2000	broth dilution / turbidity	31.3 µg/mL
CC(C)(O)c1cn(-c2ccc(Cl)cc2)nn1	URM 3621	broth dilution	64 µg/mL
O=C(CCn1ccnc1)c1ccc2ccccc2c1	RTCC 1079	broth dilution	>64 µg/mL
Cc1ccccc1N1C(=O)C[C@@H](C)C1=O	CCC 124-2000	broth dilution / turbidity	125 µg/mL
Cc1ccc(C(O)c2cccc(C(O)CCn3ccnc3)c2)cc1	RTCC 1018	broth dilution	>64 µg/mL
CC1CC(=O)N(c2ccc(F)cc2)C1=O	CCC 124-2000	broth dilution / turbidity	250 µg/mL
CN(Cc1ccc(S(=O)(=O)NC(C)(C)C)cc1)CC(O)(Cn1cncn1)c1ccc(F)cc1F	CAPA1	resazurin	0.038 µg/mL
O=C1C2=C(OC(CI)C2)C(=O)c2ccccc21	Clinical isolate	broth dilution	16 µg/mL
C[C@@H]1C(=O)N(CCCCc2ccccc2)C(=O)[C@@H]1C	CCC 124-2000	broth dilution / turbidity	62.5 µg/mL
CCCNS(=O)(=O)c1ccc(CN(C)CC(O)(Cn2cncn2)c2ccc(F)cc2F)cc1	CAPA1	resazurin	0.91 µg/mL
CC1CC(=O)N(Cc2ccccc2)C1=O	CCC 124-2000	broth dilution / turbidity	125 µg/mL
CC(C)c1ccc(S(=O)(=O)Nc2ccc(CN(C)CC(O)(Cn3cncn3)c3ccc(F)cc3F)cc2)cc1	CAPA2	resazurin	0.18 µg/mL
OC(CCn1ccnc1)c1ccc(Br)cc1	RTCC 1079	broth dilution	>64 µg/mL
C[C@@H]1CC(=O)N(c2ccc([N+](=O)[O-])cc2)C1=O	CCC 124-2000	broth dilution / turbidity	62.5 µg/mL
OC(CCn1ccnc1)c1cccc(C(O)c2ccc(Br)cc2)c1	RTCC 1079	broth dilution	>64 µg/mL
CN(Cc1ccc(NS(=O)(=O)c2ccccc2)cc1)CC(O)(Cn1cncn1)c1ccc(F)cc1F	CAPA2	resazurin	0.58 µg/mL
O=C(CCn1ccnc1)c1cccc2ccccc12	RTCC 1018	broth dilution	64 µg/mL
CC(C)NS(=O)(=O)c1ccc(CN(C)CC(O)(Cn2cncn2)c2ccc(F)cc2F)cc1	CAPA1	resazurin	0.58 µg/mL

Repeating the final 2 entries:

| structure | strain | read by | value |
|---|---|---|---|
| O=C(CCn1ccnc1)c1cccc2ccccc12 | RTCC 1018 | broth dilution | 64 µg/mL |
| CC(C)NS(=O)(=O)c1ccc(CN(C)CC(O)(Cn2cncn2)c2ccc(F)cc2F)cc1 | CAPA1 | resazurin | 0.58 µg/mL |